The values that follow come from patent US20240352022A1, “GROUP OF IMB-C5 SERIES COMPOUNDS HAVING ANTI-CORONAVIRUS ACTIVITY AND APPLICATION THEREOF” (priority 2021, published 2024).

The test system of data set [1] is HCoV-229E. The data set can be described thus: anti-HCoV-229E activity in Huh7 cells by cytopathic effect (CPE) assay. It is filed as cell-based, Human coronavirus HCoV-229E. The following applies: SI=TC50/EC50, HCoV-229E in Huh7 cells. On the technique in general: Damage to the host cells serves as the signal in cytopathic effect assays.
In data set [2] the test system is HCoV-229E. Put plainly: anti-HCoV-229E activity in Huh7.5 cells by cytopathic effect (CPE) assay. It counts as cell-based, Human coronavirus HCoV-229E. The following applies: SI=TC50/EC50, HCoV-229E in Huh7.5 cells.

Each structure is given as a SMILES string.

`COCCNc1nc2c(c(=O)n(C)c(=O)n2C)n1Cc1cccc(OC)c1` [IMB-ZH-10, 7-(3-methoxybenzyl)-8-((2-methoxyethyl)amino)-1,3-dimethyl-3,7-dihydro-1H-purine-2,6-dione]: the figures for the SI in the data set on HCoV-229E [1] and in the data set with HCoV-229E [2] were more than 15.58 and more than 7.05, respectively.

With `COc1cccc(Cn2c(NCc3ccc(F)c(C(F)(F)F)c3)nc3c2c(=O)n(C)c(=O)n3C)c1` [IMB-ZH-11, 8-((4-fluoro-3-(trifluoromethyl)benzyl)amino)-7-(3-methoxybenzyl)-1,3-dimethyl-3,7-dihydro-1H-purine-2,6-dione], the SI in the data set with HCoV-229E [1] is on record as more than 4.85; with HCoV-229E [2] it was more than 3.83.

Turning to `COc1cccc(Cn2c(N[C@@H](CO)C(C)C)nc3c2c(=O)n(C)c(=O)n3C)c1` [IMB-ZH-12, (R)-8-((1-hydroxy-3-methylbutan-2-yl)amino)-7-(3-methoxybenzyl)-1,3-dimethyl-3,7-dihydro-1H-purine-2,6-dione], the SI in the data set on HCoV-229E [1] and in the data set with HCoV-229E [2] was more than 2.08 each time.

Regarding `Cn1c(=O)c2c(nc(NCCO)n2Cc2cccc(Cl)c2F)n(C)c1=O` [IMB-ZHB-4x, 7-(3-chloro-2-fluorobenzyl)-8-((2-hydroxyethyl)amino)-1,3-dimethyl-3,7-dihydro-1H-purine-2,6-dione], the SI came out at 24.08 in the data set with HCoV-229E [1] and 10.80 in the data set with HCoV-229E [2].

For `Cn1c(=O)c2c(nc(NCCO)n2Cc2ccccc2)n(C)c1=O` [IMB-ZHB-13x, 7-benzyl-8-((2-hydroxyethyl)amino)-1,3-dimethyl-3,7-dihydro-1H-purine-2,6-dione], the values for the SI in the data set on HCoV-229E [1] and in the data set on HCoV-229E [2] were more than 27.03 and more than 3.95, respectively.

On to `COC(=O)CNc1nc2c(c(=O)n(C)c(=O)n2C)n1Cc1cccc(OC)c1` [IMB-ZHC-2, methyl(7-(3-methoxybenzyl)-1,3-dimethyl-2,6-dioxo-2,3,6,7-tetrahydro-1H-purin-8-yl)glycinate], for which the SI is reported as more than 4.5 with HCoV-229E [1] and more than 3 in the data set on HCoV-229E [2].

For the molecule `COc1cccc(Cn2c(NC[C@@H](C)O)nc3c2c(=O)n(C)c(=O)n3C)c1` [IMB-ZHC-6, (R)-8-((2-hydroxypropyl)amino)-7-(3-methoxybenzyl)-1,3-dimethyl-3,7-dihydro-1H-purine-2,6-dione], the results for the SI with HCoV-229E [1] and in the data set with HCoV-229E [2] were more than 10.61 and more than 2.28, respectively.

Take `COc1cccc(Cn2c(NC[C@H](C)O)nc3c2c(=O)n(C)c(=O)n3C)c1` [IMB-ZHC-7, (S)-8-((2-hydroxypropyl)amino)-7-(3-methoxybenzyl)-1,3-dimethyl-3,7-dihydro-1H-purine-2,6-dione]: the SI with HCoV-229E [1] is given as more than 6.98; with HCoV-229E [2], more than 3.

Consider `COc1cccc(Cn2c(NCC(N)=O)nc3c2c(=O)n(C)c(=O)n3C)c1` [IMB-ZHC-15, ((7-(3-methoxybenzyl)-1,3-dimethyl-2,6-dioxo-2,3,6,7-tetrahydro-1H-purin-8-yl)amino)acetamide], for which the SI was more than 3 in the data set on HCoV-229E [1] and more than 2.28 with HCoV-229E [2].

As to `CC(C)C(=O)OC[C@H]1O[C@@H](n2ccc(NO)nc2=O)[C@H](O)[C@@H]1O` [Molnupiravir, reference compound], the figures for the SI with HCoV-229E [1] and with HCoV-229E [2] were more than 104.17 and more than 46.73, respectively.
